According to publication PMC10818719 (Viruses, 2023):

System: MDBK cells

| SMILES | Hill slope (m) (24 h incubation) | Hill slope (m) (48 h incubation) | Hill slope (m) (72 h incubation) |
| --- | --- | --- | --- |
| CN(C)c1ccc2nc3ccc(=[N+](C)C)cc-3sc2c1 [MB, Methylene blue] | 3.98 | 1.00 | 2.52 |
| Cc1cc2nc3ccc(N(C)C)cc3[s+]c2cc1N.[Cl-] [TBO, toluidine blue O] | 1.88 | 0.098 | 0.075 |

Where two headings read alike, the source gives them in different places.
